Laboratory results taken from PMC6315591 (Marine Drugs, 2018).

Chains of the proteins cited; added tags and fusions are not shown. Residues count along the entry.
UniProt P43144, 26-479 limits assumed: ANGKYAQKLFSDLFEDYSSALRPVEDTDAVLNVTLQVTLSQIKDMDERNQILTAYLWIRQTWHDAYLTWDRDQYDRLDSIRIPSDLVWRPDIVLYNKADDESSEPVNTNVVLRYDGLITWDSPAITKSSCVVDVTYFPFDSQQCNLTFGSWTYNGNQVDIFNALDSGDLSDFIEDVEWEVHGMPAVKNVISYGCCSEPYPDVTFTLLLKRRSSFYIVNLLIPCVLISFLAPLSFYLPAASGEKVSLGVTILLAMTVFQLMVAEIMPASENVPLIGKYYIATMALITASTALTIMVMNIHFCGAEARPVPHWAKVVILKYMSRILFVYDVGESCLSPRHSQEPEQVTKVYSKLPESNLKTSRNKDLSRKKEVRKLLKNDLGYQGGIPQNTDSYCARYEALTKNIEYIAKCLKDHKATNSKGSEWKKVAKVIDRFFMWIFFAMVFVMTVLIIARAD
UniProt Q9JLB5, 25-447 limits assumed: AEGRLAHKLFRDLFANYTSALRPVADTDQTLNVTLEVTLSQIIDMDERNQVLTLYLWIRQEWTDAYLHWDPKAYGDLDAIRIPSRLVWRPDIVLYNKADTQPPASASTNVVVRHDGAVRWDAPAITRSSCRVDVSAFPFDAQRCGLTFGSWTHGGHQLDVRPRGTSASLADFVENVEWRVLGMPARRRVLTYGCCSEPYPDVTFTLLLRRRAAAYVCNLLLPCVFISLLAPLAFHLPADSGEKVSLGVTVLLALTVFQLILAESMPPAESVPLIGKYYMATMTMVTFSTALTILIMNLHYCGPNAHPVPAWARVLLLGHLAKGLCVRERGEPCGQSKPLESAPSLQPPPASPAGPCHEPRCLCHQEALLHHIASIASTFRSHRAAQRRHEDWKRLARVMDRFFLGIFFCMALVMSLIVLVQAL

Target: rat α9α10 nAChR (Rattus norvegicus, UniProt P43144+Q9JLB5)

## C[C@H](N)C(=O)N[C@H]1CSSC[C@@H]2NC(=O)[C@H](C)NC(=O)[C@@H]3CCCN3C(=O)[C@H](CC(N)=O)NC(=O)[C@H](CSSC[C@@H](C(N)=O)NC(=O)[C@H](CO)NC(=O)[C@H](Cc3ccc(O)cc3)NC(=O)[C@H](Cc3c[nH]cn3)NC(=O)[C@H](CCCNC(=N)N)NC(=O)CNC2=O)NC1=O
  IC50: > 10 µM
